## Results of single-concentration screens

The values are deposited in ChEMBL (CHEMBL3988442, “University of Dundee, Small-Polar-MMV Screening Library” (2021)).

Mtb cholesterol medium: 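Phenotypic screen: M. tuberculosis growth, cholesterol and DPPC medium, 4 days; the read-out is not stated. Tested at 500 µM. Higher reads as more growth inhibition (inferred: compounds with an IC50 in retests scored well above the rest). Of about 18,000 compounds tested this way, about 900 (5%) reached 50% or more in at least one test.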
Mtb glucose medium: 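Growth of Mycobacterium tuberculosis over 3 days (7H9 medium with glucose and tyloxapol); the read-out is not stated. Compounds at 500 µM. Direction is inferred from retests: higher values go with more growth inhibition. Of about 18,000 compounds tested this way, about 1,400 (7.9%) reached 50% or more in at least one test.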

Values are the deposited “Percent Effect”, in %.
The controls that fix the scale are not given in the record; negative values are as filed.
This is part of a subset picked to be rich in strong results.

compound: CN(CC(=O)NC(C)(C)C)C(=O)c1sccc1Cl
Mtb glucose medium: 14.44%

compound: CCC[C@H]1CN(S(=O)(=O)N(C)CC)C[C@@H]1N
Mtb cholesterol medium: 11.37%

compound: CN(C(=O)c1ccc(Cl)c(F)c1)C1(C(N)=O)CCCC1
Mtb glucose medium: 19.87%

compound: Nc1cnccc1CO
Mtb glucose medium: -2.429%

compound: OCCc1nccs1
Mtb cholesterol medium: -1.264%

compound: COc1ccccc1-c1ncc(CN)s1
Mtb cholesterol medium: -10.77%
Mtb glucose medium: -5.427%

compound: Cc1ccc(S(=O)(=O)NCCN)cc1C(F)(F)F
Mtb cholesterol medium: 52.28%
Mtb glucose medium: 69.51%

compound: C=C(Cl)CS(=O)(=O)N1CCC(C(=O)N(CC)CC)CC1
Mtb glucose medium: -0.9969%

compound: CCn1ccnc1CNc1ccn(CCCOC)n1
Mtb glucose medium: 4.151%

compound: Cc1nc(CNC(=O)NCc2cc[nH]n2)cs1
Mtb glucose medium: 6.946%

compound: CC1(C)CCNCCS1(=O)=O
Mtb glucose medium: 0.07775%

compound: Cc1ccc(C(=O)N2CCCC2c2cccs2)c(=O)[nH]1 (stereo not shown)
Mtb glucose medium: 19.7%

compound: COc1cc(CN2CCCC2CO)cc2c1OCO2 (stereo not shown)
Mtb cholesterol medium: 15.14%

compound: CSC(C)(C)CNC(=O)NC1CCCS(=O)(=O)C1 (stereo not shown)
Mtb glucose medium: 5.307%

compound: Cc1nn(CC(=O)NCCc2c[nH]cn2)c(C)c1C
Mtb glucose medium: -4.34%

compound: COc1cc(OC)cc(C2(F)CCNCC2)c1
Mtb glucose medium: 54.53%

compound: Cc1cc2cc(C(=O)NCCOC(N)=O)oc2cc1C
Mtb cholesterol medium: -1.072%

compound: Nc1cnn(CC(=O)NC2CCCC2)c1
Mtb glucose medium: 22.78%

compound: COc1cc(OC)cc(N2CCC(N)CC2)c1
Mtb cholesterol medium: -3.646%
Mtb glucose medium: 37.61%

compound: COCCN1CCC(CNC(=O)c2cn[nH]c2)C1 (stereo not shown)
Mtb cholesterol medium: -23.79%
Mtb glucose medium: -4.629%

compound: CNC(=O)c1ccccc1S(=O)(=O)CCOC
Mtb cholesterol medium: -0.104%

compound: CN(C)S(=O)(=O)c1cccc(CN2CCCC2)c1
Mtb glucose medium: 51.83%

compound: Cc1cc(NC(=O)C2=NN(C)C(=O)CC2)n(C)n1
Mtb glucose medium: -0.3519%

compound: CCSc1nnc(N2CCOCC2)n1C
Mtb glucose medium: 14.75%

compound: O=C(NCCN1CCCC1)c1ccccc1F
Mtb glucose medium: 15.96%

compound: CC1CCc2onc(C(=O)Nc3cccnc3)c2C1 (stereo not shown)
Mtb glucose medium: -5.613%